Measured values reported in PubChem BioAssay AID1619 (SRMLSC, 2009).
The other results are listed elsewhere or left out. Potency and affinity values are given separately. Some salts and complexes are drawn in separate pieces, as the source files them; their charges need not balance. Calls of active or inactive are those of the source.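 Rule for the calls: active = compound inhibiting the enzyme by more than half at any dose during confirmatory dose-response retesting; inconclusive = strong single-dose inhibitors picked by rank but not retested; inactive = the rest.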

By UniProt entry, the sequences of proteins in these tests, tags left out.
UniProt Q8IL11, whole entry: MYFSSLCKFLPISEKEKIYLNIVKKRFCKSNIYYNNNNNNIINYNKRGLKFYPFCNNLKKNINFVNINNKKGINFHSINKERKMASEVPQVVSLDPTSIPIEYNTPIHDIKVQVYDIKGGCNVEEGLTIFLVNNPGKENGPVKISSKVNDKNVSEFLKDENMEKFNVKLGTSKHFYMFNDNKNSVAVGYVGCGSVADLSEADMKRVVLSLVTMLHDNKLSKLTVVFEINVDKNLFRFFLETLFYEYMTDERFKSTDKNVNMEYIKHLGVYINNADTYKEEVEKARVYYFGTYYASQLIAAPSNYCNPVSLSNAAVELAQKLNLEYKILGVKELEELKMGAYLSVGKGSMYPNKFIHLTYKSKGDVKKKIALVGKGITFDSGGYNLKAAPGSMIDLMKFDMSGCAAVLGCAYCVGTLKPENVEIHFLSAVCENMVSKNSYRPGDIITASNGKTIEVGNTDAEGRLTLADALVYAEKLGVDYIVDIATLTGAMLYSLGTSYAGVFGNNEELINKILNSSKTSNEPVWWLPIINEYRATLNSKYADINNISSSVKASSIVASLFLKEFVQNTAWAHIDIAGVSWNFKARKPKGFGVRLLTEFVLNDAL

Target: Leucine aminopeptidase (Plasmodium falciparum (isolate 3D7)) (UniProt Q8IL11)
Assay: P. falciparum M17LAP inhibitors, primary screen, biochemical, fluorogenic H-Leu-NHMec substrate, 1536-well (AID 1619);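 note: plate controls were full reaction with DMSO carrier for no effect and no enzyme background for full effect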
Settings: recombinant M17LAP, H-Leu-NHMec fluorogenic kinetic assay; at 30 µM; hits give high values

SMILES | inhibition
CCc1ccc(OP(C)(=O)O)cc1 | inactive: 12.8%
CP(=O)(Nc1ccccn1)Oc1ccccc1 (stereo not drawn) | inactive: -4.03%
COc1ccccc1OP(C)(=O)Nc1ccc(C)cc1C (stereo not drawn) | inactive: 11%
Cc1c(NP(C)(=O)Oc2ccc(C(C)C)cc2)c(=O)n(-c2ccccc2)n1C (stereo not drawn) | inactive: 0.52%
O=[N+]([O-])c1cc([N+](=O)[O-])c(Nc2ccccn2)c([N+](=O)[O-])c1 | inactive: 38.3%
CN(C)CCOC(=O)C(O)(c1ccccc1)C1CCCC1 (stereo not drawn) | inactive: -8.5%
COc1ccc(OP(C)(=O)Nc2ccccn2)cc1 (stereo not drawn) | inactive: -1.73%
COc1ccccc1OP(C)(=O)Nc1ccc(Br)cc1 (stereo not drawn) | inactive: -6.69%
CP(=O)(Nc1ccc(Cl)cc1Cl)Oc1ccccc1 (stereo not drawn) | inactive: 0.45%
CP(=O)(OCCOc1ccccc1)OCCOc1ccccc1 | inactive: -6.89%
Cc1nc2ccc3ccccc3c2o1.O=[N+]([O-])c1cc([N+](=O)[O-])c(O)c([N+](=O)[O-])c1 | inactive: -23.3%
COc1ccc(OP(C)(=O)Nc2ccccc2Br)cc1 (stereo not drawn) | inactive: 4.35%
COc1ccccc1OP(C)(=O)Nc1ccc(C)c(C)c1 (stereo not drawn) | inactive: -3.88%
Cc1cc(C)cc(OP(C)(=O)Nc2cccc(C(F)(F)F)c2)c1 (stereo not drawn) | inactive: 21.6%
CP(=O)(OC12CC3CC(CC(C3)C1)C2)OC12CC3CC(CC(C3)C1)C2 | inactive: 0.63%
CCOC(=O)c1ccc(NP(C)(=O)Oc2ccc(Cl)cc2)cc1 (stereo not drawn) | inactive: 2.04%
CN(C)C(=O)c1c([N+](=O)[O-])cc([N+](=O)[O-])cc1[N+](=O)[O-] | inactive: 5.55%
CP(=O)(Nc1ccc(Cl)cc1)Oc1ccc(F)cc1 (stereo not drawn) | inactive: 8.71%
COc1ccccc1OP(C)(=O)Nc1ccccc1Br (stereo not drawn) | inactive: 2.25%
CC(C)(C)c1ccc(OP(C)(=O)O)cc1 | inactive: 4.29%
CP(=O)(Oc1ccccc1)N1CCOC1=O (stereo not drawn) | inactive: -6.17%

SMILES | inhibition
CCc1ccc(OP(C)(=O)Nc2cccnc2)cc1 (stereo not drawn) | inactive: 20.8%
O=C(OCCCN1CCCC1)C(O)(c1ccccc1)C1CCCCC1 (stereo not drawn) | inactive: 24.9%
CCN(CC)CC(O)COC(=O)C(O)(c1ccccc1)C1CCCCC1 (stereo not drawn) | inactive: 1.93%
COc1ccc(OP(C)(=O)Nc2ccc(Br)cc2)cc1 (stereo not drawn) | inactive: -15.2%
Cc1ccccc1NP(C)(=O)Nc1ccccc1C | inactive: 7.21%
CP(=O)(Nc1ccc2c(c1)OCCO2)Oc1ccccc1 (stereo not drawn) | inactive: -7.29%
CCOP(C)(=S)SCC(=O)NC(C)(CC)C(=O)O (stereo not drawn) | inactive: 13.7%
CP(=O)(Nc1ccc(SC(F)(F)F)cc1)Oc1ccc(F)cc1 (stereo not drawn) | inactive: 10.5%
Cc1cc(-c2cccc3ccccc23)c(C)cn1.O=[N+]([O-])c1cc([N+](=O)[O-])c(O)c([N+](=O)[O-])c1 | inactive: 10.8%
O=[N+]([O-])c1cc([N+](=O)[O-])c(NCC2CCS(=O)(=O)C2)c([N+](=O)[O-])c1 (stereo not drawn) | inactive: 5.17%
O=[N+]([O-])c1ccc(OP2(=O)COCCO2)cc1 (stereo not drawn) | inactive: 3.43%
COc1ccc(NP(C)(=O)Oc2ccccc2OC)cc1 (stereo not drawn) | inactive: -6.04%
CN(C)CCOC(=O)C(O)(c1ccccc1)C1CCCCC1 (stereo not drawn) | inactive: -0.93%
COc1ccc(OP(C)(=O)Nc2cccc(Br)c2)cc1 (stereo not drawn) | inactive: 7.33%
CCCCCOc1ccc(NP(C)(=O)Oc2ccc(Cl)cc2Cl)cc1 (stereo not drawn) | inactive: -1.95%
CP(=O)(Nc1ccccc1)Oc1ccc(F)cc1 (stereo not drawn) | inactive: 0.41%
CCN(CC)CCCOC(=O)C(O)(c1ccccc1)C1CCCCC1 (stereo not drawn) | inactive: 9.89%
COc1ccc(OP(C)(=O)Nc2ccc(SC(F)(F)F)cc2)cc1 (stereo not drawn) | inactive: -1.15%
CCOC(=O)c1ccc(NP(C)(=O)Oc2ccc(F)cc2)cc1 (stereo not drawn) | inactive: 6.49%
COc1ccc2c(c1O)-c1c(O)c(OC)cc3c1[C@H](C2)[N+](C)(C)CC3.O=[N+]([O-])c1cc([N+](=O)[O-])c([O-])c([N+](=O)[O-])c1[O-] | inactive: -9.94%
O=C(OCCN1CCN(CCOCc2ccccc2)CC1)C(O)(c1ccccc1)c1ccccc1 | inactive: 3.73%

SMILES | inhibition
O=C(OC1CN2CCC1CC2)c1ccc([N+](=O)[O-])cc1 (stereo not drawn) | inactive: -4.27%
CC(C)c1ccc(OP(C)(=O)Nc2ccc(SC(F)(F)F)cc2)cc1 (stereo not drawn) | inactive: 3.13%
CP(=O)(Nc1ccccc1F)Oc1ccccc1 (stereo not drawn) | inactive: -6.39%
Cc1cc(C)cc(OP(C)(=O)Nc2ccccn2)c1 (stereo not drawn) | inactive: 15.1%
CP(=O)(Nc1cccc(Br)c1)Oc1ccccc1 (stereo not drawn) | inactive: -2.39%
Cc1ccc(C)c(NP(C)(=O)Oc2ccccc2)c1 (stereo not drawn) | inactive: 6.63%
Cc1cc(C)cc(OP(C)(=O)Nc2ccc(C)cc2C)c1 (stereo not drawn) | inactive: -4.55%
CCOC(=O)c1ccc(NP(C)(=O)Oc2cc(C)cc(C)c2)cc1 (stereo not drawn) | inactive: 24.2%
COc1ccccc1OP(C)(=O)Nc1cccc(Br)c1 (stereo not drawn) | inactive: -5.12%
CC1=NCCc2c1[nH]c1ccccc21.O=[N+]([O-])c1cc([N+](=O)[O-])c(O)c([N+](=O)[O-])c1 | inactive: 4.47%
O=C(O)c1cccc(Nc2c([N+](=O)[O-])cc([N+](=O)[O-])cc2[N+](=O)[O-])c1 | inactive: -14.8%
CCCOc1ccc(NP(C)(=O)Oc2ccc(Cl)cc2)cc1 (stereo not drawn) | inactive: 39.8%
CP(=O)(Nc1ccc(SC(F)(F)F)cc1)Oc1ccccc1 (stereo not drawn) | inactive: -10.7%
COc1ccccc1OP(C)(=O)Nc1c(C)cccc1C (stereo not drawn) | inactive: -2.04%
CN1CCCCC1COC(=O)C1(O)c2ccccc2CCc2ccccc21 (stereo not drawn) | inactive: -1.72%
O=[N+]([O-])c1cc([N+](=O)[O-])c(Nc2nnnn2CCO)c([N+](=O)[O-])c1 | inactive: 1.67%
CCOC(=O)C(CC)C1=NC(C)(C)Cc2ccccc21.O=[N+]([O-])c1cc([N+](=O)[O-])c(O)c([N+](=O)[O-])c1 (stereo not drawn) | inactive: 16.6%
Cc1nc2ccc3ccccc3c2s1.O=[N+]([O-])c1cc([N+](=O)[O-])c(O)c([N+](=O)[O-])c1 | inactive: -17.4%
O=[N+]([O-])c1cc([N+](=O)[O-])c(-n2nnc3ccccc32)c([N+](=O)[O-])c1 | inactive: 6.57%
CP(=O)(Nc1ccccn1)Oc1ccc(Cl)cc1 (stereo not drawn) | inactive: 1.74%
CCOP(C)(=S)SCC(=O)NC(C)C(=O)O (stereo not drawn) | inactive: 0.15%

SMILES | inhibition
CCOC(=O)c1ccc(NP(C)(=O)Oc2ccc(OC)cc2)cc1 (stereo not drawn) | inactive: 11.2%
CP(=O)(NC(=O)Nc1ccccc1)Oc1ccccc1 (stereo not drawn) | inactive: -6.34%
CCc1ccc(OP(C)(=O)N2CCN(c3ccc([N+](=O)[O-])cc3)CC2)cc1 (stereo not drawn) | inactive: 7.93%
Cc1cc(C)cc(OP(C)(=O)Nc2ccc(SC(F)(F)F)cc2)c1 (stereo not drawn) | inactive: 0.93%
Cc1cccc(C)c1OP(C)(=O)Nc1ccc(SC(F)(F)F)cc1 (stereo not drawn) | inactive: 16%
CP(=O)(Nc1ccc(SC(F)(F)F)cc1)Oc1ccc(Cl)cc1 (stereo not drawn) | inactive: -14.2%
CP(=O)(Oc1ccccc1)OC(c1ccccc1)C(F)(F)F (stereo not drawn) | inactive: 0.66%
COc1ccccc1OP(C)(=O)Nc1ccccc1 (stereo not drawn) | inactive: -2.6%
CP(=O)(Nc1ccccc1Br)Oc1ccccc1 (stereo not drawn) | inactive: -3.67%
CP(=S)(Nn1cnnc1)Oc1ccccc1 (stereo not drawn) | inactive: 4.94%
COc1ccccc1OP(C)(=O)Nc1cc(Cl)ccc1C (stereo not drawn) | inactive: 3.84%
COc1ccc(OP(C)(=O)Nc2cccc(F)c2)cc1 (stereo not drawn) | inactive: 2.99%
Cc1cc(C)cc(OP(C)(N)=O)c1 (stereo not drawn) | inactive: 2.38%
CCOC(=O)c1ccc(NP(C)(=O)Oc2ccccc2)cc1 (stereo not drawn) | inactive: -17.6%
COc1ccccc1OP(C)(=O)Nc1ccc(C)cc1 (stereo not drawn) | inactive: -7.79%
Cc1ccc(NP(C)(=O)Oc2ccccc2)c(C)c1 (stereo not drawn) | inactive: 14.1%
CC(C)(C)c1ccc(OP(C)(=O)Nc2ccc(SC(F)(F)F)cc2)cc1 (stereo not drawn) | inactive: -1.58%
Cc1cccc(C)c1OP(C)(N)=O (stereo not drawn) | inactive: -4.57%
O=[N+]([O-])c1ccc2c(c1)C=Nc1ccccc1O2 | inactive: 2.69%
CCN(CC)CCCOC(=O)C(O)(c1ccccc1)c1ccccc1 | inactive: -0.12%
